Anti-infective test results gathered from many reports (values: NIAID ChemDB through PubChem).

Common to all: growth or infection tests; species: HIV-1; cell line: MT-4; endpoint: EC50

Conditions beyond the fields shown may differ between rows. ECn is the concentration giving n% inhibition of infection, replication or growth. An empty or dashed field is not shown.

smiles,strain or isolate,changes,method,conditions,value
Nc1ncnc2c1ncn2CCOCP(=O)(O)O,IIIB,-,-,-,7.7 µM
Cc1cn([C@H]2C=C[C@@H](CO)O2)c(=O)[nH]c1=O,FO-01.95,-,cytopathic effect,-,1.72 µM
CC(=O)c1ccc(NC(=O)CSc2nc(CC34CC5CC(CC(C5)C3)C4)c(C)c(=O)[nH]2)c(Br)c1,RES056,-,MTT / absorbance,-,>23.73 µM
Clc1ccc2c(c1)Nc1ccccc1S2,IIIB,-,cytopathic effect / MTT,-,>500 µg/mL
O=C1N(Cc2ccccc2)[C@H](Cc2ccccc2)[C@H](O)CN(Cc2ccccc2)N1Cc1ccccc1,-,-,-,-,2.86 µM
Cc1ccc(NC(=O)Nc2ccc(-c3ccc(NC(=O)Nc4ccc(-c5ccc(NC(=O)Nc6ccc(-c7ccc(NC(=O)Nc8ccc(C)cc8)cc7S(=O)(=O)O)c(S(=O)(=O)O)c6)cc5S(=O)(=O)O)c(S(=O)(=O)O)c4)cc3S(=O)(=O)O)c(S(=O)(=O)O)c2)cc1,RF,-,p24,-,>15 µM
CC(=O)NCCCN1c2ccccc2Sc2ccc(Cl)cc21,IIIB,-,cytopathic effect / MTT,-,>500 µg/mL
Cc1cc(C)c(Nc2ccc([N+](=O)[O-])c(NC3CCN(Cc4ccc(S(C)(=O)=O)cc4)CC3)n2)c(C)c1,IIIB,Resistant strain (K103N + Y181C),MTT,-,>21 µM
CC(C)=CCN1Cc2cc(Cl)cc3[nH]c(=S)n(c23)C[C@@H]1C,-,RT-M41L T215Y Y181C,-,-,<3 µM
Cc1cn([C@H]2C[C@H](N=[N+]=[N-])[C@@H](CO)O2)c(=O)[nH]c1=O,RF,-,-,-,0.055 µM
C=C1[C@H](CO)[C@@H](O)C[C@@H]1n1cnc2c(=O)[nH]c(N)nc21,IIIB,Resistant strain (K103N + Y181C),MTT,-,0.034 µM
Cc1ccnc2c1NC(=O)c1cccnc1N2C1CC1,IIIB-R,-,cytopathic effect / MTT,5 d,>1000 µM
COC[C@H](NC(=O)C(F)(F)C(=O)[C@H](Cc1ccc(OCc2ccccc2)cc1)NC(=O)[C@@H](NC(=O)OCc1ccccc1)C(C)C)C(C)C,RF,-,cytopathic effect / MTT,-,<0.01 µM
Cc1c(CC23CC4CC(CC(C4)C2)C3)nc(SCC(=O)Nc2ccc(C(N)=O)cc2)[nH]c1=O,IIIB,-,MTT / absorbance,-,3.84 µM
Cc1cc(C)c(Oc2ccc([N+](=O)[O-])c(NC3CCN(Cc4ccncc4)CC3)n2)c(C)c1,IIIB,-,MTT,-,0.833 µg/mL
CCN1C(=O)c2cn(C)cc2S(=O)(=O)c2cc(Cl)ccc21,IIIB,-,cytopathic effect / MTT,-,22 µM
Nc1ccn([C@H]2CC[C@@H](CO)O2)c(=O)n1,IIIB,-,cytopathic effect,-,0.854 µM
C[C@H]1CS(=O)(=O)C[C@H]1OC(=O)N[C@@H](Cc1ccccc1)[C@H](O)CN1C[C@H]2CCCC[C@H]2C[C@H]1C(=O)NC(C)(C)C,IIIB,-,p24,-,<0.8 µM
Cc1ccc(NC(=O)Nc2ccc(-c3ccc(NC(=O)Nc4ccc(-c5ccc(NC(=O)Nc6ccc(-c7ccc(NC(=O)Nc8ccc(-c9ccc(NC(=O)Nc%10ccc(C)cc%10)cc9S(=O)(=O)O)c(S(=O)(=O)O)c8)cc7S(=O)(=O)O)c(S(=O)(=O)O)c6)cc5S(=O)(=O)O)c(S(=O)(=O)O)c4)cc3S(=O)(=O)O)c(S(=O)(=O)O)c2)cc1,RF,-,p24,-,>11 µM
Cc1cn([C@@H]2O[C@H](CO[Si](C)(C)C(C)(C)C)[C@@]3(OS(=O)(=O)C=C3N)[C@H]2O[Si](C)(C)C(C)(C)C)c(=O)[nH]c1=O,IIIB,-,trypan blue,-,0.036 µM
CCOC(=O)c1cn(CC=C(C)C)cc1S(=O)(=O)c1cc(Cl)ccc1NCC=C(C)C,IIIB,-,cytopathic effect / MTT,-,>200 µM
CC(=O)SCCOP(=O)(OCCSC(C)=O)OC[C@@H]1CC[C@H](n2cnc3c(N)ncnc32)O1,LAI,-,RT activity,-,0.011 µM
NCCCN1c2ccccc2Sc2ccc(Cl)cc21,IIIB,-,cytopathic effect / MTT,-,>20 µg/mL
Cc1c(COCc2ccccc2)c(=O)n(Cc2ccccc2)c(=O)n1Cc1ccccc1,-,-,ELISA,-,>53 µM
c1ccc2c(c1)Nc1ccccc1S2,IIIB,-,cytopathic effect / MTT,-,>500 µg/mL
CCc1cc(NCc2nc3c(Cl)ccc(Cl)c3o2)c(=O)[nH]c1C,RFII,-,p24,-,0.05 µM
CC(C)[C@@H]1[C@H](OC(=O)N[C@@H](Cc2ccccc2)[C@H](O)CN2C[C@H]3CCCC[C@H]3C[C@H]2C(=O)NC(C)(C)C)CCS1(=O)=O,IIIB,-,p24,-,<0.05 µM
CN(C)c1cccc2c(S(=O)(=O)N3CCSC3c3cccnc3)cccc12,IIIB-R,-,cytopathic effect / MTT,5 d,>2000 µM
Cc1cc(C#N)cc(C)c1Oc1ccc([N+](=O)[O-])c(NC2CCN(Cc3ccc(C(N)=O)cc3)CC2)n1,IIIB,Resistant strain (K103N + Y181C),MTT,-,>27 µM
NC(=O)C[C@H](NC(=O)c1ccc2ccccc2n1)C(=O)N[C@@H](Cc1ccccc1)[C@H](O)CN[C@@H](Cc1ccccc1)C(=O)N[C@H]1c2ccccc2C[C@H]1O,IIIB,-,p24,-,<0.0125 µM
Cc1c(C(C)c2c(F)cccc2F)nc(SC2CCCC2)[nH]c1=O,NL4-3,-,cytopathic effect / MTT,-,0.0011 µM
Nc1nc2c(ncn2CCOCP(=O)(O)O)c(=O)[nH]1,HE,-,-,-,0.26 µM
Cc1cn([C@H]2C=C[C@@H](COC(=O)CCNC(=O)C(=O)/C=C(\O)c3cccn3Cc3ccc(F)cc3)O2)c(=O)[nH]c1=O,IIIB,-,RT activity,-,4.5 µM
CCCC[C@H]1[C@@H](OC(=O)N[C@@H](Cc2ccccc2)[C@H](O)CN2C[C@H]3CCCC[C@H]3C[C@H]2C(=O)NC(C)(C)C)CCS1(=O)=O,IIIB,-,p24,-,<0.4 µM
O=C1Nc2ccc(Cl)cc2S(=O)(=O)c2cn(Cc3cccc4ccccc34)cc21,IIIB,-,cytopathic effect / MTT,-,22 µM
C[C@@H](Cn1cnc2c(N)nc(N)nc21)OCP(=O)(O)O,IIIB,-,-,-,7.4 µM
Cc1cn([C@H]2C[C@H](N=[N+]=[N-])[C@@H](CO)O2)c(=O)[nH]c1=O,IIIB,-,cytopathic effect / MTT,-,0.0059 µM
CCOC(=O)c1c[nH]cc1S(=O)(=O)c1ccccc1,IIIB,-,cytopathic effect / MTT,-,>200 µM
CC(C)Nc1cccnc1N1CCN(C(=O)c2cc3cc(NS(C)(=O)=O)ccc3[nH]2)CC1,IIIB,-,MTT / absorbance,-,0.033 µM
CC(C)=CCN1Cc2cccc3[nH]c(=S)n(c23)C[C@@H]1C,IIIB,-,cytopathic effect / MTT,-,0.18 µM
CC(C)(C)NC(=O)[C@@H]1C[C@@H]2CCCC[C@@H]2CN1C[C@@H](O)[C@H](Cc1ccccc1)NC(=O)O[C@@H]1CCS(=O)(=O)[C@@H]1C1CCCC1,IIIB,-,p24,-,<1.5 µM
O=C(NO)c1ncc(CNCc2cccc(F)c2)c(CO)c1O,NL4-3,-,MTT / absorbance,-,1 µM
O=C1N(Cc2ccc(O)cc2)[C@H](Cc2ccccc2)[C@H](O)CN(Cc2ccccc2)N1Cc1ccc(O)cc1,-,-,cytopathic effect / MTT,-,0.01 µM
Cc1cn([C@H]2C[C@H](N=[N+]=[N-])[C@@H](CO)O2)c(=O)[nH]c1=O,IIIB,-,-,-,0.00061 µg/mL
O=c1[nH]cnc2c1ncn2[C@H]1CC[C@@H](CO)O1,FO-01.95,-,cytopathic effect,-,15.9 µM
Nc1ccn([C@H]2CC[C@@H](CO)O2)c(=O)n1,IIIB,-,MTT,-,0.8 µg/mL
CS(=O)(=O)NCCCN1c2ccccc2Sc2ccc(Cl)cc21,IIIB,-,cytopathic effect / MTT,-,>500 µg/mL
CCc1c(CC23CC4CC(CC(C4)C2)C3)nc(SCC(=O)c2ccccc2)[nH]c1=O,IIIB,-,MTT / absorbance,-,0.19 µM
Cc1cc(C)c(Oc2ccc(N)c(NC3CCN(Cc4ccc(S(C)(=O)=O)cc4)CC3)n2)c(C)c1,IIIB,Resistant strain (K103N + Y181C),MTT,-,5.6 µM
Cc1c(Sc2ccccc2)n(COCCO)c(=O)[nH]c1=O,-,-,ELISA,-,53 µM
Cc1cn([C@H]2C[C@@H](N=[N+]=[N-])[C@@H](CO)O2)c(=O)[nH]c1=O,IIIB,-,MTT,-,0.0065 µg/mL
CCOCn1c(Sc2cc(C)cc(C)c2)c(C(C)C)c(=O)[nH]c1=S,IIIB,-,trypan blue,-,0.004 µM
COc1cc(CN2C(=O)N(CC3CC3)N(Cc3ccccc3)C[C@@H](O)[C@H]2Cc2ccccc2)ccc1O,-,-,-,-,0.17 µM
CCOC(=O)c1c[nH]cc1S(=O)(=O)c1cc(Cl)ccc1N,Clinical isolate,RT-Y181C,cytopathic effect / MTT,-,≥30 µM
Cc1cc(-c2cccc(C#N)c2)cc(C)c1Nc1ccnc(Nc2ccc(C#N)cc2)n1,-,Y188L RT mutation,MTT,-,>9.2 µM
O=C1N(Cc2ccc(CO)cc2)[C@H](Cc2ccccc2)[C@H](O)[C@@H](O)[C@@H](Cc2ccccc2)N1Cc1ccc(CO)cc1,-,-,-,-,0.03 µM
Cc1ccnc2c1NC(=O)c1cccnc1N2C1CC1,A17,RT-K103N Y181C,cytopathic effect / MTT,-,>100 µM
CC(C)CN(C[C@@H](O)[C@H](Cc1ccccc1)NC(=O)O[C@H]1CCOC1)S(=O)(=O)c1ccc(N)cc1,NL4-3,-,p24,-,<0.08 µM
CC(C)(C)NC(=O)[C@@H]1C[C@@H]2CCCC[C@@H]2CN1C[C@@H](O)[C@H](Cc1ccccc1)NC(=O)O[C@H]1CCS(=O)(=O)[C@H]1C1CCCC1,IIIB,-,p24,-,<0.4 µM
O=c1[nH]cnc2c1ncn2[C@H]1CC[C@@H](CO)O1,LAI,-,RT activity,-,11 µM
Cc1[nH]c(=O)[nH]c(=O)c1Cc1ccccc1,-,-,ELISA,-,>53 µM
Cc1cc(C#N)cc(C)c1Oc1ccc(N)c(NC2CCN(Cc3ccncc3)CC2)n1,IIIB,-,MTT,-,0.056 µg/mL
O=C(CCNC(=O)C(=O)/C=C(\O)c1cccn1Cc1ccc(F)cc1)OC[C@@H]1C=C[C@H](n2ccc(=O)[nH]c2=O)O1,IIIB,-,RT activity,-,>10 µM
C[C@@H]1[C@H](OC(=O)N[C@@H](Cc2ccccc2)[C@H](O)CN2C[C@H]3CCCC[C@H]3C[C@H]2C(=O)NC(C)(C)C)CCS1(=O)=O,IIIB,-,p24,-,<0.2 µM
COc1ccc(C(OC[C@H]2O[C@@H](n3cc(C)c(=O)[nH]c3=O)C[C@@H]2O)(c2ccccc2)c2ccc(OC)cc2)cc1,-,-,cytopathic effect / MTT,-,>100 µg/mL
O=C(CNC(=O)C(=O)/C=C(\O)c1cccn1Cc1ccc(F)cc1)OC[C@@H]1C=C[C@H](n2ccc(=O)[nH]c2=O)O1,IIIB,-,RT activity,-,>10 µM
O=C1Nc2ccc(Cl)cc2S(=O)(=O)c2cn(Cc3c(F)cccc3F)cc21,IIIB,-,cytopathic effect / MTT,-,40 µM
Cc1cn([C@H]2C[C@H](N=[N+]=[N-])[C@@H](CO)O2)c(=O)[nH]c1=O,IIIB,-,RT activity,-,1.4 µM
COc1cc(C2SCCN2S(=O)(=O)c2cccc3c(N(C)C)cccc23)ccc1O,IIIB,-,cytopathic effect / MTT,-,2.32 µM
Nc1ncnc2c1ncn2[C@H]1CC[C@@H](CO)O1,IIIB,-,cytopathic effect / p24 / trypan blue,-,21 µM
Cc1ccc(C(=O)Nc2ccc(S(=O)(=O)O)c3cc(S(=O)(=O)O)cc(S(=O)(=O)O)c23)cc1NC(=O)c1cccc(NC(=O)Nc2cccc(C(=O)Nc3cc(C(=O)Nc4ccc(S(=O)(=O)O)c5cc(S(=O)(=O)O)cc(S(=O)(=O)O)c45)ccc3C)c2)c1,IIIB,-,cytopathic effect / MTT,-,42 µg/mL
Cc1cn([C@H]2C=C[C@@H](COC(=O)CCNC(=O)C(=O)/C=C(\O)c3cc(OCc4ccccc4)cc(OCc4ccccc4)c3)O2)c(=O)[nH]c1=O,IIIB,-,RT activity,-,2.2 µM
CCOCn1c(C)c(Cc2ccccc2)c(=O)[nH]c1=O,-,-,ELISA,-,30 µM
BrCC[n+]1ccc(-c2cc[n+](CCBr)cc2)cc1,IIIB,-,MTT,-,>5.88 µM
Cc1ccnc2c1NC(=O)c1cccnc1N2C1CC1,LAI,-,cytopathic effect / MTT,-,0.032 µM

The last 10 rows once more:

O=C(CNC(=O)C(=O)/C=C(\O)c1cccn1Cc1ccc(F)cc1)OC[C@@H]1C=C[C@H](n2ccc(=O)[nH]c2=O)O1 ; strain or isolate: IIIB ; method: RT activity ; value: >10 µM
O=C1Nc2ccc(Cl)cc2S(=O)(=O)c2cn(Cc3c(F)cccc3F)cc21 ; strain or isolate: IIIB ; method: cytopathic effect / MTT ; value: 40 µM
Cc1cn([C@H]2C[C@H](N=[N+]=[N-])[C@@H](CO)O2)c(=O)[nH]c1=O ; strain or isolate: IIIB ; method: RT activity ; value: 1.4 µM
COc1cc(C2SCCN2S(=O)(=O)c2cccc3c(N(C)C)cccc23)ccc1O ; strain or isolate: IIIB ; method: cytopathic effect / MTT ; value: 2.32 µM
Nc1ncnc2c1ncn2[C@H]1CC[C@@H](CO)O1 ; strain or isolate: IIIB ; method: cytopathic effect / p24 / trypan blue ; value: 21 µM
Cc1ccc(C(=O)Nc2ccc(S(=O)(=O)O)c3cc(S(=O)(=O)O)cc(S(=O)(=O)O)c23)cc1NC(=O)c1cccc(NC(=O)Nc2cccc(C(=O)Nc3cc(C(=O)Nc4ccc(S(=O)(=O)O)c5cc(S(=O)(=O)O)cc(S(=O)(=O)O)c45)ccc3C)c2)c1 ; strain or isolate: IIIB ; method: cytopathic effect / MTT ; value: 42 µg/mL
Cc1cn([C@H]2C=C[C@@H](COC(=O)CCNC(=O)C(=O)/C=C(\O)c3cc(OCc4ccccc4)cc(OCc4ccccc4)c3)O2)c(=O)[nH]c1=O ; strain or isolate: IIIB ; method: RT activity ; value: 2.2 µM
CCOCn1c(C)c(Cc2ccccc2)c(=O)[nH]c1=O ; method: ELISA ; value: 30 µM
BrCC[n+]1ccc(-c2cc[n+](CCBr)cc2)cc1 ; strain or isolate: IIIB ; method: MTT ; value: >5.88 µM
Cc1ccnc2c1NC(=O)c1cccnc1N2C1CC1 ; strain or isolate: LAI ; method: cytopathic effect / MTT ; value: 0.032 µM